Test results taken from PubChem BioAssay AID651654 (Broad Institute, 2012).
The entries are a selection whose mix differs from that of the whole data set. Calls of active or inactive are those of the source.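 Rule for the calls: active = mean lysis activity across replicates of at least 80%, whatever share of replicates individually reach that level; inactive = mean lysis activity below 80%.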

Test: Cryptococcus neoformans cell lysis inducers, primary screen, AK release luminescence, single concentration (AID 651654)
Conditions: C. neoformans lysis, adenylate kinase release luminescence, 4 h; at 15 µM; active compounds read high; normalised: neutral wells 0, clomiphene wells 100
How it was run: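 Assay system: C. neoformans cells. Amount: yeast cell density of 5 × 10^6 cells/mL. Technique: AK luminescence. Buffer or medium: YPD. Times: static 4 h at 37 °C with compound, 1 h detection. Dosing: single-point compound dose. Read-out: lysis from increased AK signal.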
With O=c1[nH]c2ccccc2n1C1CCN(C(c2ccccc2OC(F)(F)F)c2nnnn2C2CCCCC2)CC1 (stereo unspecified) the lysis activity was inactive: -0.335%. In the case of O=C(NCC1(N2CCCCC2)CCCCC1)c1ccc(Cl)nc1, the lysis activity is reported as inactive: -1.73%. In the case of Cc1cc(C)cc(N(C(=O)c2ccccc2)C2CCN(C(=O)OC(C)(C)C)CC2)c1, the lysis activity is reported as inactive: -0.738%. In the case of CCOC(=O)N1CCC(Nc2ccc(OC)cc2)CC1, the lysis activity is reported as inactive: -0.497%. With CCCCn1nnnc1C(c1ccc(OC)cc1)N1CCC(n2c(=O)[nH]c3ccccc32)CC1 (stereo unspecified) the lysis activity was inactive: 2.28%. For O=C(OC1CN2CCC1CC2)C1c2ccccc2Oc2ccccc21 (stereo unspecified), the lysis activity was inactive: 13.4%. For O=c1[nH]c2ccccc2n1C1CCN(C(c2cc3ccccc3o2)c2nnnn2C2CCCCC2)CC1 (stereo unspecified), the lysis activity was inactive: -1.01%. In the case of O=C(NCC1(N2CCCCC2)CCCCC1)c1ccc(Cl)s1, the lysis activity is reported as inactive: -0.211%. In the case of O=C(NCC1(N2CCCCC2)CCCCC1)c1ccc(=O)[nH]c1, the lysis activity is reported as inactive: -1.45%. With CCCCn1nnnc1C(c1cccs1)N1CCC(n2c(=O)[nH]c3ccccc32)CC1 (stereo unspecified) the lysis activity was inactive: 1.95%. For O=C(NCC1(N2CCCCC2)CCCCC1)c1cccs1, the lysis activity was inactive: -1.86%. For CCCCn1nnnc1C(CC)N1CCC(n2c(=O)[nH]c3ccccc32)CC1 (stereo unspecified), the lysis activity was inactive: -0.704%. For COc1ccc(C(=O)NCC2(N3CCCCC3)CCCCC2)cc1, the lysis activity was inactive: 0.064%. For CCC(c1nnnn1C1CCCC1)N1CCC(n2c(=O)[nH]c3ccccc32)CC1 (stereo unspecified), the lysis activity was inactive: -1.01%. For CC(C)(C)OC(=O)N1CCC(N(C(=O)c2ccccc2)c2ccc(F)cc2)CC1, the lysis activity was inactive: 0.598%. In the case of CSc1ccccc1C(=O)NCC1(N2CCCCC2)CCCCC1, the lysis activity is reported as inactive: -2.37%. For Cc1cccc(NC2(C#N)CCN(Cc3ccccc3)CC2)c1, the lysis activity was inactive: -0.429%. In the case of O=c1[nH]c2ccccc2n1C1CCN(C(c2ccccc2)c2nnnn2C2CCCCC2)CC1 (stereo unspecified), the lysis activity is reported as inactive: -1.19%. With O=c1[nH]c2ccccc2n1C1CCN(C(c2cccc3ccccc23)c2nnnn2C2CCCC2)CC1 (stereo unspecified) the lysis activity was inactive: -13.2%. With COc1cc(C(=O)NCC2(N(C)C)CCCCC2)ccc1OC(F)F the lysis activity was inactive: 1.25%. For CCOC(=O)N1CCC(Nc2cccc(C)c2)CC1, the lysis activity was inactive: -0.224%. For CC(C)(C)n1nnnc1C(c1ccccc1)N1CCC(n2c(=O)[nH]c3ccccc32)CC1 (stereo unspecified), the lysis activity was inactive: 3.38%. With O=C1CCN(Cc2ccccc2)CC1 the lysis activity was inactive: -5.19%. For O=C(NCC1(N2CCCCC2)CCCCC1)c1ccc(F)cc1, the lysis activity was inactive: -0.3%. With O=P1(N(CCCl)CCCl)SCCCS1 the lysis activity was inactive: 2.52%. With CCCCn1nnnc1C(c1cc2ccccc2o1)N1CCC(n2c(=O)[nH]c3ccccc32)CC1 (stereo unspecified) the lysis activity was inactive: -13.4%.
